In patent US20170280728A1, “ANTIMICROBIAL COMPOSITIONS AND METHODS OF THEIR USE” (CMS TECHNOLOGY, INC.., priority 2014, published 2017):

Tested on: Salmonella enterica serovar Anatum (ATCC #9270)
Assay: Salmonella Assay (liquid sanitizer exposure, log reduction)
Type: cell-based
Conditions: 15 ppm chlorine, 0 ppm copper; Solution pH 6.0; Control Sample Baseline 6.75 log; n = 3

## OCl
  Treated Sample Reduction: 4.77 log
